Results of unrelated studies side by side (data: NIAID ChemDB).

Common to all: whole-cell or culture tests; organism: Herpes simplex virus 1; read by: plaque count; endpoint: EC50

An empty or dashed field is not shown. Neighbouring rows are from separate reports. ECn: concentration that inhibits the pathogen or its effect by n%.

structure | strain | cells | mutations | result
Cc1cc(C)c(OC(=O)c2ccc(Cl)cc2)c(=O)c(C)c1 | Clinical isolate | HFF |  | 1.63 µM
Nc1nc2c(ncn2CCCCO)c(=O)[nH]1 | C42 | HEL |  | 0.1 µM
Nc1ncnc2c1ncn2[C@@H]1O[C@H](CO)[C@@H](O)[C@@H]1O | P-ACG-R | HFF |  | 42 µg/mL
CC[C@@H](C(C)C)[C@@H](O)[C@H](O)[C@@H](C)[C@H]1CC[C@H]2[C@@H]3CC(=O)[C@@]4(O)C[C@@H](Br)CC[C@]4(C)[C@H]3CC[C@]12C | F | VERO |  | 17.7 µM
CN(C)c1cc(-c2ccc(O)cc2O)on1 | ATCC VR733 | VERO |  | >227 µM
CC(C)=CCc1ccc(O)c(=O)cc1C(C)C | Clinical isolate | HFF |  | 0.74 µM
COc1ccc(-c2cc(N3CCCC3)no2)c(O)c1 | ATCC VR733 | VERO |  | >384 µM
CC[C@@H](C(C)C)[C@H](O)[C@@H](O)[C@@H](C)[C@H]1CC[C@H]2[C@@H]3CC(=O)[C@H]4C[C@@H](OC(C)=O)CC[C@]4(C)[C@H]3CC[C@]12C | B2006 (TK-) | VERO |  | >39.6 µM
Cc1c(O)c2ccc(N(C)C)cc2[nH]c1=O |  | KB |  | 3 µg/mL
O=[N+]([O-])c1ccccc1S(=O)(=O)n1c(CCc2ccccn2)nc2cc(Cl)c(Cl)cc21 |  |  |  | >2 µg/mL
CCOc1ccc(-c2onc(N(CC)CC)c2Cc2c(N(CC)CC)noc2-c2ccc(O)cc2O)c(O)c1 | ATCC VR733 | VERO |  | >17 µM
CC[C@@H](C(C)C)[C@H](O)[C@@H](O)[C@@H](C)[C@H]1CC[C@H]2[C@@H]3CC(=O)[C@H]4C[C@@H](Br)CC[C@]4(C)[C@H]3CC[C@]12C | B2006 (TK-) | VERO |  | 42.6 µM
Nc1nc2c(ncn2CC[C@H](O)CO)c(=O)[nH]1 | C42 | BHK |  | 33 µM
O=C(NCc1ccc(Cl)cc1)c1c[nH]c2ccc(CCCO)cc2c1=O | MAC |  |  | 16 µM
Cc1nc(N(C)C(=O)Cc2ccc(-c3ccccn3)cc2)sc1S(N)(=O)=O | KD3 | VERO |  | 0.03 µM
Nc1ccn(C[C@@H](CO)OCP(=O)(O)O)c(=O)n1 | KOS | HEL | TK-deficient acyclovir-resistant | 2 µM
Cc1ccc(SC[C@@H](OCn2cnc3c(N)ncnc32)[C@@H](C)F)cc1 |  | VERO |  | >100 µg/mL
Nc1nc2c(ncn2COCCO)c(=O)[nH]1 | E-115 | HFF |  | 0.2 µg/mL
COc1cc2oc(-c3ccccc3)cc(=O)c2c(OC)c1OC | KOS | VERO |  | 5.8 µg/mL
CC[C@@H](C(C)C)[C@H](O)[C@@H](O)[C@@H](C)[C@H]1CC[C@H]2[C@@H]3CC(=O)[C@H]4C[C@H](O)[C@H](O)C[C@]4(C)[C@H]3CC[C@]12C | F | VERO |  | 22.8 µM
Cc1ccc(S(=O)C[C@H](CF)OCn2cnc3c(=O)[nH]c(N)nc32)cc1 |  | VERO |  | >50 µg/mL
Cc1cccc(C)c1N(CC(=O)Nc1ccc(-c2ncon2)cc1)C(=O)C1CCS(=O)(=O)CC1 | 1 (KOS) | HEF |  | 0.036 µM
CC(=O)NC(CCc1ccc(Cl)c(Cl)c1)c1cccc(O)c(=O)c1 | Clinical isolate | HFF |  | 2.81 µM
C#CCOc1cc(OC)ccc1-c1cc(N(CC)CC)no1 | ATCC VR733 | VERO |  | >40 µM
O=c1ccn(C[C@]2(CO)C[C@H]2CO)c(=O)[nH]1 |  | VERO |  | >500 µg/mL
COC(=O)[C@@H]1O[C@]12[C@@H](CO[Si](C)(C)C(C)(C)C)O[C@@H](n1ccc(=O)[nH]c1=O)[C@@H]2O[Si](C)(C)C(C)(C)C |  | VERO |  | 23 µM
C=C1CC2C[C@@H](OC(=O)c3ccccc3)[C@H]3[C@](C)(C(=O)O)CCC[C@]3(C)C23CCC1C3 | HF | HELA229 |  | 0.012 µg/mL
CC(C)(C)[Si](C)(C)OC[C@H]1O[C@@H](n2ccc(=O)[nH]c2=O)[C@H](O[Si](C)(C)C(C)(C)C)C1(O)C(Cl)C(N)=O |  | VERO |  | >3.8 µM
COCc1cn([C@H]2C[C@H](O)[C@@H](CO)O2)c(=O)nc1N | NAH | VERO |  | 66 µM
CC[C@@H](C(C)C)[C@H](O)[C@@H](O)[C@@H](C)[C@H]1CC[C@H]2[C@@H]3CC(=O)[C@@]4(O)C[C@@H](Br)CC[C@]4(C)[C@H]3CC[C@]12C | B2006 (TK-) | VERO |  | 53.8 µM
Nc1nc2c(ncn2CCC(CO)CO)c(=O)[nH]1 | Clinical isolate | MRC-5 |  | 0.6 µg/mL
CC(=O)Nc1ccc2c(C)cc(N)nc2c1 |  | KB |  | 3 µg/mL
O=C(O)CP(=O)(O)O | TK- | VERO |  | 37.1 µg/mL
CCN(CC)c1noc(-c2ccc(O)cc2O)c1Cc1c(N(CC)CC)noc1-c1ccc(OC)cc1O | ATCC VR733 | VERO |  | >3.5 µM
CC(C)[C@H](NC(=O)CN)C(=O)OCC(COC(=O)[C@@H](NC(=O)CN)C(C)C)OCn1cnc2c(=O)[nH]c(N)nc21 |  | HFF |  | 0.38 µM
CC1(C)C=C2[C@H]3CC[C@@H]4[C@@]5(C)CCC(=O)C(C)(C)[C@@H]5CC[C@@]4(C)[C@]3(C)CC[C@@]2(C(=O)O)CC1 | 7401H (phosphonoacetic acid-resistant) | VERO |  | 1.6 µg/mL
CCOc1ccc(-c2cc(N3CCCCC3)no2)c(O)c1 | ATCC VR733 | VERO |  | >347 µM
CN(C)c1ccc2ccc(N(C)C)nc2c1 |  | KB |  | 3 µg/mL
Cc1ccc(C2NC(=O)C3NC(=O)C(c4cc(O)cc(O)c4)NC(=O)C(NC(=O)C(N)Cc4ccc(O)cc4)Cc4c[nH]c5cc(ccc45)-c4cc3cc(c4O)Oc3ccc(cc3)CC(C(=O)NC(C(=O)O)c3ccc(O)c(O)c3)NC2=O)cc1Cl | KOS | VERO |  | >25 µg/mL
CN(C)c1ccc2c(N(C)C)cc(N(C)C)nc2c1 |  | KB |  | 4 µg/mL
CC[C@@H](C(C)C)[C@@H](O)[C@H](O)[C@@H](C)[C@H]1CC[C@H]2[C@@H]3CC(=O)[C@@]4(O)C[C@@H](OC(C)=O)CC[C@]4(C)[C@H]3CC[C@]12C | F | VERO |  | 57.6 µM
CS/C=C/C(=O)NCCCCNC(=O)Cc1ccccc1 |  |  |  | <20 µg/mL
C[C@@H](c1ccccc1)N(CC(=O)Nc1ccc(-c2csc(N)n2)cc1)C(=O)c1ccncc1 | F | BHK-21/C13 |  | 0.09 µM
Nc1ccn(C[C@@H](CO)OCP(=O)(O)O)c(=O)n1 | BW-R (TK-) | MRC-5 |  | 1.1 µM
COC(=O)/C=C1/[C@@H](O[Si](C)(C)C(C)(C)C)[C@H](n2cc(C)c(=O)n(C)c2=O)O[C@@H]1CO[Si](C)(C)C(C)(C)C |  | VERO |  | >100 µM
Nc1nc2c(ncn2CCCCO)c(=O)[nH]1 | C915 TK- | VERO |  | >200 µM
O=[N+]([O-])c1ccc(-c2nc3c(Cl)c4ncccc4cc3[nH]2)cc1 | KOS | VERO 76 |  | 44 µM
Cc1cc([C@@H](O)[C@@H](O)CO)co1 | HF | VERO |  | 1.6 µM
CC(=O)Nc1ccc2c(C)ccnc2c1 |  | KB |  | 7 µg/mL
C=C1[C@H](CO)[C@@H](O)C[C@@H]1n1cnc2c(=O)[nH]c(N)nc21 |  | WI-38 |  | 2.8 µM
CC(C)c1ccc(O)c(O)c(=O)c1 | Clinical isolate | HFF |  | 0.97 µM
Nc1nc2c(ncn2C[C@]2(CO)C[C@H]2CO)c(=O)[nH]1 |  | VERO |  | 0.02 µg/mL
Nc1nc2c(ncn2CCC(CO)CO)c(=O)[nH]1 | Tomioka | BALB/3T3 |  | 0.067 µg/mL
CC(C)[C@H](N)C(=O)N[C@H](C(=O)OCC(COC(=O)[C@@H](NC(=O)[C@@H](N)C(C)C)C(C)C)OCn1cnc2c(=O)[nH]c(N)nc21)C(C)C |  | HFF |  | 0.56 µM

A second listing of 3 rows from above:

structure | strain | cells | mutations | result
CC[C@@H](C(C)C)[C@H](O)[C@@H](O)[C@@H](C)[C@H]1CC[C@H]2[C@@H]3CC(=O)[C@H]4C[C@H](O)[C@H](O)C[C@]4(C)[C@H]3CC[C@]12C | F | VERO |  | 22.8 µM
CC[C@@H](C(C)C)[C@H](O)[C@@H](O)[C@@H](C)[C@H]1CC[C@H]2[C@@H]3CC(=O)[C@@]4(O)C[C@@H](Br)CC[C@]4(C)[C@H]3CC[C@]12C | B2006 (TK-) | VERO |  | 53.8 µM
Nc1ccn(C[C@@H](CO)OCP(=O)(O)O)c(=O)n1 | KOS | HEL | TK-deficient acyclovir-resistant | 2 µM